From patent US20260166162A1, “CARBON CHAIN SUBSTANCE FOR REGULATING TRANSMEMBRANE TRANSPORT AND FLUIDITY OF CELL MEMBRANES, AND PREPARATION AND USE THEREOF” (priority 2022, published 2026)

Test system: viruses and bacteria
Details: concentration 0.035 mM

ALA-HSA: serum albumin grafted with linolenic acid by amide bonds (Example 1)
virus killing and bacterial killing abilities: greater than 99%
